Results of unrelated studies side by side (data: NIAID ChemDB).

All rows: growth or infection tests; species: Mycobacterium tuberculosis

Blank or dashed fields: not listed here. A number after MIC or MFC names an inhibition level or a share of isolates. ECn: concentration that inhibits the pathogen or its effect by n%. MIC bound comes from a single tested concentration. Lines come from different laboratories, so protocols vary. Inhibition is in % at the dose shown (toxicity tests: loss of growth or viability).

compound,read by,endpoint,strain or isolate,changes,tested at,result
COc1ccc(C2OC(c3ccncc3)=NN2C)c(OC)c1,-,MIC,H37Rv,-,-,>20 µg/mL
Cc1ccc(NC(=O)C(c2ccccc2)c2ccccc2)cc1Cl,BACTEC,inhibition,H37Rv,-,12.5 µg/mL,0%
COc1c(N2CCNC(C)C2)c(F)cc2c(=O)c(C(=O)O)cn(C3CC3)c12,agar,MIC,H37Rv,-,-,1.04 µM
Nc1nc(-c2ccccc2)c(N=Nc2ccc(Cl)cc2)s1,BACTEC,MIC bound,H37Rv,-,-,>6.25 µg/mL
COc1ccc(OC)c(C2OC(c3ccncc3)=NN2C)c1,-,MIC,16PI,-,-,>20 µg/mL
O=C(O)c1c2n(c3cc(N4CCC(N5CCCCC5)CC4)c([N+](=O)[O-])cc3c1=O)CS2,agar,MIC,H37Rv,-,-,1.75 µM
NC[C@@H]1O[C@H](O[C@H]2[C@@H](O)[C@H](O[C@@H]3[C@@H](O)[C@H](N)C[C@H](N)[C@H]3O[C@H]3O[C@H](CO)[C@@H](O)[C@H](O)[C@H]3N)O[C@@H]2CO)[C@H](N)[C@@H](O)[C@@H]1O,-,MIC,MTB11 (EMB-R),-,-,0.75 µg/mL
N[C@@H]1CONC1=O,-,MIC,H37Rv,-,-,<10 µg/mL
Cc1cc(O)c2c(c1O)C(=O)c1cccc(O)c1C2=O,BACTEC,inhibition,H37Rv,-,12.5 µg/mL,-1%
CCN(C(=O)COc1cc2c(O)c3c(O)c(C)c4c(c13)C(=O)[C@@](C)(O/C=C/[C@H](OC)[C@@H](C)[C@@H](OC(C)=O)[C@H](C)[C@H](O)[C@H](C)[C@@H](O)[C@@H](C)/C=C/C=C(/C)C(=O)N2)O4)N1CCCCC1,-,MIC,H37Rv,-,-,0.045 µg/mL
COCCN1CCN(C(=O)c2nc3cc(C(F)(F)F)cc([N+](=O)[O-])c3s2)CC1,resazurin / absorbance,MIC80,H37Rv,Overexpressing Rv3790 (DprE1),-,16 µg/mL
CN1N=C(c2ccncc2)OC1c1ccc(Cl)cc1Cl,-,MIC,16PI,-,-,>1 µg/mL
Cc1cc(=O)oc2ccc(OCC(=O)Nn3c(-c4ccccc4)ccc3-c3ccccc3)cc12,resazurin,inhibition,H37Rv (ATCC 27294),-,100 µg/mL,97%
CO[C@H]1/C=C/O[C@@]2(C)Oc3c(C)c(O)c4c(O)c(cc(OCC(=O)N5C(CO)CCC5CO)c4c3C2=O)NC(=O)/C(C)=C\C=C\[C@H](C)[C@H](O)[C@@H](C)[C@@H](O)[C@@H](C)[C@H](OC(C)=O)[C@@H]1C,-,MIC,H37Rv,-,-,0.18 µg/mL
CO[C@H]1/C=C/O[C@@]2(C)Oc3c(C)c(O)c4c(=O)c(c5oc6cc(N7CCN(CC(C)C)CC7)cc(=O)c6nc5c4c3=C2O)NC(=O)/C(C)=C\C=C\[C@H](C)[C@H](O)[C@@H](C)[C@@H](O)[C@@H](C)[C@H](OC(C)=O)[C@@H]1C,-,MIC50,30 isolates,-,-,0.016 µg/mL
C=CCS/C(N)=N/NC(=O)c1ccc(Cl)cc1,-,MIC,H37Rv,-,-,>100 µg/mL
CN1N=C(c2ccncc2)OC1c1ccc(Cl)cc1,-,MIC,6 PI,-,-,>20 µg/mL
CO[C@H]1/C=C/O[C@@]2(C)Oc3c(C)c(O)c4c(O)c(cc(OCC(=O)N5CCC(C)CC5)c4c3C2=O)NC(=O)/C(C)=C\C=C\[C@H](C)[C@H](O)[C@@H](C)[C@@H](O)[C@@H](C)[C@H](OC(C)=O)[C@@H]1C,-,MIC,H37Rv,-,-,0.37 µg/mL
COc1c(/C=C/C=O)cc2c(c1OC)OCO2,BACTEC,MIC bound,H37Rv,-,-,>12.5 µg/mL
CO[C@H]1/C=C/O[C@@]2(C)Oc3c(C)c(O)c4c(O)c(c(/C=N/N5CCN(C)CC5)c(O)c4c3C2=O)NC(=O)/C(C)=C\C=C\[C@H](C)[C@H](O)[C@@H](C)[C@@H](O)[C@@H](C)[C@H](OC(C)=O)[C@@H]1C,resazurin / absorbance,EC50,H37Rv,-,-,0.55 µM
CC1(C)c2ccccc2-c2nc3ccccc3c(N)c2C1O,BACTEC,MIC bound,H37Rv,-,-,>12.5 µg/mL
CO[C@H]1/C=C/O[C@@]2(C)Oc3c(C)c(O)c4c(O)c(c(/C=N/N5CCN(C)CC5)c(O)c4c3C2=O)NC(=O)/C(C)=C\C=C\[C@H](C)[C@H](O)[C@@H](C)[C@@H](O)[C@@H](C)[C@H](OC(C)=O)[C@@H]1C,-,MIC,12761,-,-,0.1 µg/mL
Nc1nc(-c2ccccc2)c(CCCNc2ccc(C(=O)NC(CCC(=O)O)C(=O)O)cc2)c(=O)[nH]1,BACTEC,MIC bound,H37Rv,-,-,>12.5 µg/mL
O=C(O)c1c2n(c3cc(N4CCC(n5c(=O)[nH]c6cc(Cl)ccc65)CC4)c([N+](=O)[O-])cc3c1=O)CS2,agar,MIC,H37Rv,-,-,0.73 µM
O=[N+]([O-])c1cc(C(F)(F)F)cc2ncsc12,resazurin / absorbance,MIC80,H37Rv,-,-,>16 µg/mL
O=C(C1=C2OC3C=CC=CC3SC2=CCC1)C1=C2OC3C=CC=CC3SC2=CCC1,BACTEC,inhibition,H37Rv,-,12.5 µg/mL,-21%
CO[C@H]1/C=C/O[C@@]2(C)Oc3c(C)c(O)c4c(O)c(cc(OCC(=O)N(C)C5CCCCC5)c4c3C2=O)NC(=O)/C(C)=C\C=C\[C@H](C)[C@H](O)[C@@H](C)[C@@H](O)[C@@H](C)[C@H](OC(C)=O)[C@@H]1C,-,MIC,H37Rv,-,-,0.09 µg/mL
NNC(=O)c1ccncc1,-,MIC,MTB12 (PZA-R),-,-,0.12 µg/mL
O=C(CCCC(=O)NNC(=O)Nc1cccc2ccccc12)NNC(=O)Nc1cccc2ccccc12,BACTEC,MIC bound,H37Rv,-,-,>12.5 µg/mL
Cc1ccc(-c2ccccc2)n1NC(=O)COc1ccc2ccccc2c1,resazurin,inhibition,H37Rv (ATCC 27294),-,100 µg/mL,100%
O=C(O)c1nc(N=Nc2ccc(S(=O)(=O)O)cc2)[nH]c1C(=O)O,resazurin,MIC bound,H37Rv,-,-,>6.25 µg/mL
C=CCS/C(N)=N/NC(=O)c1cc(OC)c(OC)c(OC)c1,-,MIC,H37Rv,-,-,>100 µg/mL
COC(=O)c1c(/C(=N\Nc2ccc([N+](=O)[O-])cc2)[N+](=O)[O-])ssc1=N,BACTEC,inhibition,H37Rv,-,12.5 µg/mL,74%
N/C(=N\NC(=O)c1ccc(Cl)cc1)SCc1cccc(Cl)c1,-,MIC,H37Rv,-,-,>100 µg/mL
CC(C)(C)OC(=O)NC1C2CN(c3cc4c(cc3[N+](=O)[O-])c(=O)c(C(=O)O)c3n4CS3)CC21,agar,MIC,H37Rv,-,-,0.4 µM
O=C(COc1ccc2ccccc2c1)Nn1c(-c2ccccc2)ccc1-c1ccccc1,resazurin,inhibition,H37Rv (ATCC 27294),-,100 µg/mL,97%
Cc1cccc(Sc2ccncc2)c1,-,MIC90,H37Rv,-,-,>6.25 µg/mL
Cc1ccc(-c2ccccc2)n1NC(=O)c1ccncc1,turbidity,EC90,H37Rv,-,-,5.16 µg/mL
COc1ccc2nc(Oc3ccccc3)c(C3C(C#N)=C(N)Oc4c3c(=O)oc3ccc(C)cc43)cc2c1,-,inhibition,H37Rv,-,250 µg/mL,45%
CCC1OC(=O)CC(O)C(C)C(OC2OC(C)C(O)C(N(C)C)C2O)C(CC=O)CC(C)C(=O)/C=C\C2(C)OC2C1C,BACTEC,inhibition,H37Rv,-,12.5 µg/mL,20%
O=S(=O)(Nc1ccnn1-c1ccccc1)c1ccc(Nc2ccnc3ccc(Cl)cc23)cc1,-,MIC,Strain 1 (MDR),-,-,4 µg/mL
CC1C(=O)OC2CC[N+]3(C)CC=C(COC(=O)C(C)(O)C1(C)O)C23.[Br-],BACTEC,inhibition,H37Rv,-,12.5 µg/mL,13%
COc1ccc(CSc2ncccn2)cc1,-,MIC90,H37Rv,-,-,>6.25 µg/mL
c1ccc([Si]2(c3ccccc3)[Si](c3ccccc3)(c3ccccc3)[Si](c3ccccc3)(c3ccccc3)[Si]2(c2ccccc2)c2ccccc2)cc1,BACTEC,inhibition,H37Rv,-,12.5 µg/mL,22%
N/C(=N\NC(=O)c1ccc(F)cc1)SCc1cccc(Cl)c1,-,MIC,H37Rv,-,-,>100 µg/mL
O=C(c1ccccc1)C1CSS(=O)(=O)C1c1ccccc1,BACTEC,inhibition,H37Rv,-,12.5 µg/mL,15%
N#CC1=C(N)Oc2c(c(=O)oc3ccccc23)C1c1cc2ccccc2nc1Oc1ccc(Cl)cc1,-,inhibition,H37Rv,-,250 µg/mL,32%
NC(=S)NNC(=O)c1ccc(Cl)cc1,-,MIC,H37Rv,-,-,>100 µg/mL
COc1ccc(OC)c(Sc2nc(Cl)nc3nc[nH]c23)c1.O,-,MIC90,H37Rv,-,-,>6.25 µg/mL
O=C(c1nc2cc(C(F)(F)F)cc([N+](=O)[O-])c2s1)N1CCCCC1,resazurin / absorbance,MBC,H37Rv,-,-,0.5 µg/mL
O=C(Nn1c(-c2ccccc2)ccc1-c1ccccc1)c1ccncc1,turbidity,EC50,LORA,-,-,>67.8 µg/mL
Cc1ccc(CSc2ncccn2)cc1,-,inhibition,H37Rv,-,6.25 µg/mL,0%
CC1=C(O)C(=O)C=C2C1=CC=C1[C@@]2(C)CC[C@@]2(C)[C@@H]3C[C@](C)(C(=O)O)CC[C@]3(C)CC[C@]12C,BACTEC,inhibition,H37Rv,-,12.8 µg/mL,44%
Cc1ccc2nccc(Nc3ccc(S(=O)(=O)Nc4ccnn4-c4ccccc4)cc3)c2c1,-,MIC,Strain 1 (MDR),-,-,4 µg/mL
CCc1c(C)[nH]c(C2=NCCC2)c1C,BACTEC,MIC bound,H37Rv,-,-,>12.5 µg/mL
Cc1ccc2nccc(NC(=S)Nc3ccc(Cl)cc3)c2c1,-,MIC,Strain 2 (MDR),-,-,>2 µg/mL
COc1ccccc1C1COC(c2ccccc2)(c2ccccc2)S1,BACTEC,MIC bound,H37Rv,-,-,>12.5 µg/mL
Clc1cccc(Sc2nc(Cl)nc3nc[nH]c23)c1,-,inhibition,H37Rv,-,6.25 µg/mL,0%
CCCN(C(=O)COc1cc2c(O)c3c(O)c(C)c4c(c13)C(=O)[C@@](C)(O/C=C/[C@H](OC)[C@@H](C)[C@@H](OC(C)=O)[C@H](C)[C@H](O)[C@H](C)[C@@H](O)[C@@H](C)/C=C/C=C(/C)C(=O)N2)O4)N1CCCCC1,-,MIC,H37Rv,-,-,0.045 µg/mL
CN1N=C(c2ccncc2)OC1c1ccc(C(F)(F)F)cc1,-,MIC,16PI,-,-,>20 µg/mL
NS(=O)(=O)c1cc2c(cc1Cl)NC(CC1CCCC1)NS2(=O)=O,resazurin,MIC bound,H37Rv,-,-,>6.25 µg/mL
C#CCN(CCC)C(=O)COc1cc2c(O)c3c(O)c(C)c4c(c13)C(=O)[C@@](C)(O/C=C/[C@H](OC)[C@@H](C)[C@@H](OC(C)=O)[C@H](C)[C@H](O)[C@H](C)[C@@H](O)[C@@H](C)/C=C/C=C(/C)C(=O)N2)O4,-,MIC,H37Rv,-,-,0.37 µg/mL
CC(C)(C)OC(=O)NC1C2CN(c3cc4c(cc3F)c(=O)c(C(=O)O)c3n4CS3)CC21,agar,MIC,H37Rv,-,-,0.87 µM
Cc1c(C(F)(F)F)cc2nc(C3=N[C@H](C(=O)N4CCCC4)CO3)sc2c1[N+](=O)[O-],resazurin / absorbance,MIC80,H37Rv,BTZ-resistant (C387S),-,64 µg/mL
CC(=O)Nc1ccc(S(=O)(=O)c2ccc(N)cc2)cc1,-,MIC,Strain 2 (MDR),-,-,0.5 µg/mL
O=c1nc(SCc2ccccn2)c2[nH]cnc2[nH]1,-,MIC,H37Ra,-,-,>12.8 µg/mL
CC(C)(O)CN1CCN(CC(O)c2ccccc2)CC1,BACTEC,MIC bound,H37Rv,-,-,>12.8 µg/mL
N/C(=N\NC(=O)c1ccccc1)SCc1cccc(Cl)c1,-,MIC,H37Rv,-,-,>100 µg/mL
CN1C2=NCCN2C(=O)c2cc(Cl)ccc21,BACTEC,MIC bound,H37Rv,-,-,>12.5 µg/mL
COc1ccc2nc(Oc3ccccc3)c(C3C(C#N)=C(N)Oc4c3c(=O)oc3ccccc43)cc2c1,-,inhibition,H37Rv,-,250 µg/mL,11%
COc1ccc(C2OC(c3ccncc3)=NN2C)cc1OC,-,MIC,H37Rv,-,-,>20 µg/mL
COC(=O)/C1=C/c2c([nH]c3ccccc23)/C(C(=O)OC)=C\c2c1[nH]c1ccccc21,resazurin / absorbance,EC50,H37Rv,-,-,0.24 µM
COc1cccc2c(NC(=S)Nc3ccc(Cl)cc3)ccnc12,-,MIC,Strain 1 (MDR),-,-,0.5 µg/mL
CN1N=C(c2ccncc2)OC1c1ccccc1F,-,MIC,H37Rv,-,-,10 µg/mL
CS/C(N)=N/NC(=O)c1ccc(Cl)cc1,-,MIC,H37Rv,-,-,>100 µg/mL

Again, the opening 9 rows:

compound,read by,endpoint,strain or isolate,changes,tested at,result
COc1ccc(C2OC(c3ccncc3)=NN2C)c(OC)c1,-,MIC,H37Rv,-,-,>20 µg/mL
Cc1ccc(NC(=O)C(c2ccccc2)c2ccccc2)cc1Cl,BACTEC,inhibition,H37Rv,-,12.5 µg/mL,0%
COc1c(N2CCNC(C)C2)c(F)cc2c(=O)c(C(=O)O)cn(C3CC3)c12,agar,MIC,H37Rv,-,-,1.04 µM
Nc1nc(-c2ccccc2)c(N=Nc2ccc(Cl)cc2)s1,BACTEC,MIC bound,H37Rv,-,-,>6.25 µg/mL
COc1ccc(OC)c(C2OC(c3ccncc3)=NN2C)c1,-,MIC,16PI,-,-,>20 µg/mL
O=C(O)c1c2n(c3cc(N4CCC(N5CCCCC5)CC4)c([N+](=O)[O-])cc3c1=O)CS2,agar,MIC,H37Rv,-,-,1.75 µM
NC[C@@H]1O[C@H](O[C@H]2[C@@H](O)[C@H](O[C@@H]3[C@@H](O)[C@H](N)C[C@H](N)[C@H]3O[C@H]3O[C@H](CO)[C@@H](O)[C@H](O)[C@H]3N)O[C@@H]2CO)[C@H](N)[C@@H](O)[C@@H]1O,-,MIC,MTB11 (EMB-R),-,-,0.75 µg/mL
N[C@@H]1CONC1=O,-,MIC,H37Rv,-,-,<10 µg/mL
Cc1cc(O)c2c(c1O)C(=O)c1cccc(O)c1C2=O,BACTEC,inhibition,H37Rv,-,12.5 µg/mL,-1%